Measured values from several laboratories, pooled; numbers as filed in NIAID ChemDB.

Common to all: tests in culture; agent: HIV-1; measure: EC50

Lines come from different laboratories, so protocols vary. ECn: concentration that inhibits the pathogen or its effect by n%. Blank or dashed fields: not listed here.

smiles	strain	mutations	cell line	method	conditions	value
Cc1[nH]c(=O)c(F)cc1Cn1cnc(C(F)(F)C(F)F)c(Oc2cc(C(F)F)cc(C#N)c2C)c1=O	-	Y181C	-	RT activity / fluorescence	-	3.51 µM
Nc1ccn([C@H]2CC[C@@H](CO)O2)c(=O)n1	RTMC	-	CD4+HELA + HeLa	plaque count	-	0.1 µM
CC[C@@H](C)[C@H](C(=O)O)N1C[C@H](CN2CCC(c3cc(Cc4ccc(Oc5ccccc5)cc4)nn3CC)CC2)[C@@H](c2cccc(F)c2)C1	BaL	-	HeLa	β-galactosidase	50% human serum	<0.3 µM
C/C(=C(/CCO)SS/C(CCO)=C(\C)N(C=O)Cc1cnc(C)nc1N)N(C=O)Cc1cnc(C)nc1N	MN	-	H9/HIV-1(MN) + H9	p24	-	<125 µM
CCn1nc(Cc2ccc(OC(F)(F)F)cc2)cc1C1CCN(C[C@H]2CN([C@@H](C(=O)O)C(C)C)C[C@@H]2c2cccc(F)c2)CC1	BaL	-	HeLa	β-galactosidase	-	<0.0037 µM
O=c1[nH]cnc2c1ncn2[C@H]1CC[C@@H](CO)O1	Recombinant	RT-M184V	HeLa	luciferase	-	6.33 µM
Cc1ccnc2c1NC(=O)c1cccnc1N2C1CC1	IIIB	-	C8166	ELISA	-	0.0334 µM
CC[C@H](C)[C@H](C(=O)O)N1C[C@H](CN2CCC(c3cc(Cc4ccc(OC)c(OC)c4)nn3CC)CC2)[C@@H](c2cccc(F)c2)C1	BaL	-	HeLa	β-galactosidase	50% human serum	<0.033 µM
Nc1nc(=O)n([C@@H]2CS[C@H](CO)O2)cc1F	NL4-3	M184V/A502V	TZM-gfp	GFP	-	>100 µM
Cc1cn([C@H]2C[C@H](N=[N+]=[N-])[C@@H](CO)O2)c(=O)[nH]c1=O	H1112-2 Clinical isolate zidovudine-susceptible	-	HT4 + HeLa	syncytia	-	0.015 µM
Cc1ccnc2c1NC(=O)c1cccnc1N2C1CC1	RTMC (RT D67N K70R T215F K219Q)	RT-D67N K70R T215F K219Q	HT4 + HT4 LacZ-1	plaque count	-	0.07 µM
CCn1nc(Cc2ccc(OC3CCC3)cc2)cc1C1CCN(C[C@H]2CN([C@@H](C(=O)O)C(C)C)C[C@@H]2c2cccc(F)c2)CC1	BaL	-	HeLa	β-galactosidase	-	<0.0012 µM
COC(=O)[C@H](C)NP(=O)(OC[C@@H]1C=C[C@H](n2cc(C)c(=O)[nH]c2=O)O1)Oc1ccc(Br)cc1	S159-2 Clinical isolate ZDV-resistant	RT-M41L K103N T215Y	PBMC	p24	-	0.00078 µM
CCCN(C)C(=O)Oc1nsnc1-c1c(Cl)ccc(N)c1Cl	IIIB	RT-V189I	MAGI	MTT	-	0.031 µM
C#C[C@]1(CO)O[C@@H](n2cnc3c(N)nc(F)nc32)C[C@@H]1O	Clinical isolate	A114S/M184V	MT4-GFP	fluorescence	-	0.04014 µM
S=C(NCCc1cccs1)Nc1ccc(Br)cn1	C140 Clinical isolate NRTI-resistant	RT-M41L M184V T215Y	PBMC	p24	-	0.019 µM
Cc1cc(S(N)(=O)=O)ccc1NC(=O)COc1ccc(Cl)cc1C(=O)c1cc(Cl)cc(C#N)c1	3TC-resistant (RT M184V) M184V	RT-M184V	MAGI	β-galactosidase	-	0.0007 µM
O=c1[nH]cnc2c1ncn2[C@H]1CC[C@@H](CO)O1	HXB2	-	CD4+HELA + HeLa	plaque count	-	2 µM
Cn1c2ccccc2c2c1cc(C#N)c(=O)n2-c1ccc([N+](=O)[O-])cc1	NRTI resistant	RT-M184V	HeLa	luciferase	-	0.081 µM
O=c1[nH]cnc2c1ncn2[C@H]1CC[C@@H](CO)O1	RTMC (RT D67N K70R T215F K219Q)	RT-D67N K70R T215F K219Q	HT4 + HT4 LacZ-1	plaque count	-	2.34 µM
CC[C@H](C)[C@H](C(=O)O)N1C[C@H](CN2CCC(c3cc(Cc4ccc(OC(F)F)cc4)nn3CC)CC2)[C@@H](c2cccc(F)c2)C1	BaL	-	HeLa	β-galactosidase	50% human serum	<0.011 µM
Cc1cn([C@H]2C=C[C@@H](CO)O2)c(=O)[nH]c1=O	HXB2	RT-K65R	MAGI (CCR5) + MAGI	β-galactosidase	-	7.8 µM
Cc1ccnc2c1NC(=O)c1cccnc1N2C1CC1	RTMC	RT-D67N K70R T215Y K219Q	HT4 + HT4 LacZ-1	plaque count	-	0.06 µM
CC(=O)N1CCC(C(=O)N(CCCN2CCC(Cc3ccc(C(N)=O)cc3)CC2)c2ccc(C)c(Cl)c2)CC1	R5X4 subtype B_1 recombinant	-	U87 (CD4+ CXCR4+) + U87	luciferase	-	>19 µM
Cc1cn([C@H]2C[C@H](N=[N+]=[N-])[C@@H](CO)O2)c(=O)[nH]c1=O	A012D	-	HT4 + HT4-6C	plaque count	-	1.03 µM
O=C1O[C@H]2[C@@H]3OC(=O)c4cc(O)c(O)c(O)c4-c4c(cc(O)c(O)c4O)C(=O)OC[C@H]2O[C@@H](OC(=O)c2cc(O)c(O)c(O)c2)[C@@H]3OC(=O)c2cc(O)c(O)c3c2[C@@H]2C1=CC(=O)[C@](O)(O3)C2(O)O	-	-	MAGI	p24	-	<2.5 µg/mL
Nc1ccn([C@H]2CC[C@@H](CO)O2)c(=O)n1	LAV	-	PBL	p24	-	0.096 µM
Cc1cn([C@H]2C[C@H](N=[N+]=[N-])[C@@H](CO)O2)c(=O)[nH]c1=O	NRTI resistant	RT-V75I F77L F116Y Q151M	HeLa	luciferase	-	0.72 µM
CCCOc1ccc(Cc2cc(C3CCN(C[C@H]4CN([C@@H](C(=O)O)[C@H](C)CC)C[C@@H]4c4cccc(F)c4)CC3)n(CC)n2)cc1	BaL	-	HeLa	β-galactosidase	50% human serum	<0.3 µM
Cc1cn([C@H]2C[C@H](N=[N+]=[N-])[C@@H](CO)O2)c(=O)[nH]c1=O	IIIB	-	AA5	cytopathic effect / XTT	-	0.01 µM
Cc1ccnc2c1NC(=O)c1cccnc1N2C1CC1	HXB2	RT-K103N	MAGI (CCR5) + MAGI	β-galactosidase	-	1.2 µM

The first 2 rows once more:

| smiles | strain | mutations | cell line | method | conditions | value |
|---|---|---|---|---|---|---|
| Cc1[nH]c(=O)c(F)cc1Cn1cnc(C(F)(F)C(F)F)c(Oc2cc(C(F)F)cc(C#N)c2C)c1=O | - | Y181C | - | RT activity / fluorescence | - | 3.51 µM |
| Nc1ccn([C@H]2CC[C@@H](CO)O2)c(=O)n1 | RTMC | - | CD4+HELA + HeLa | plaque count | - | 0.1 µM |